# Results of single-concentration screens

From ChEMBL document CHEMBL3988442, “University of Dundee, Small-Polar-MMV Screening Library” (2021).

Results are given as percent effect.
The controls that fix the scale are not given in the record; negative values are as filed.
The entries come from a sample that favours strong results.

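Whole-cell growth test on Mycobacterium tuberculosis, read after 3 days in glucose-containing 7H9 medium; the read-out is not stated. Concentration: 500 µM. Higher reads as more growth inhibition (inferred: compounds with an IC50 in retests scored well above the rest). Of about 18,000 compounds tested this way, about 1,400 (7.9%) reached 50% or more in at least one test.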

SMILES	Percent Effect
CC(=O)Nc1cccc(C(C)O)c1 (centres undefined)	-8.474
O=C(C1CC12CCNCC2)N1CCCCC1 (centres undefined)	2.459
CC(=O)c1ccc(S(=O)(=O)NC(CN)C2CC2)cc1 (centres undefined)	9.237
O=C1NCCCC1NC1CCSCC1 (centres undefined)	2.086
CN1C(=O)c2cccn2CC1CN (centres undefined)	11.34
CN1CCN(S(C)(=O)=O)c2ccccc2C1	-13.35
CN(CC(C)(C)O)C(=O)NCC[S+]([O-])c1ccccc1 (centres undefined)	-0.000853
CCc1nnc2n1CC(NC(=O)Cc1ccsc1)CC2 (centres undefined)	3.249
CN1C(=O)CCC1C(=O)N1CCc2ccc(F)cc21 (centres undefined)	11.22
CC(C)Cc1nc(CN2C(=O)CCNC2=O)no1	0.2896
CNS(=O)(=O)CC1CCCN1c1ncc(Br)cn1 (centres undefined)	60.9
COc1ccccc1C(O)c1ccccn1 (centres undefined)	13.16
O=C1CC(O)CCN1 (centres undefined)	4.991
CCn1nc(C(C)C)cc1C(=O)N1CCC(N)C1 (centres undefined)	5.896
COc1ccc(CNCCn2cccn2)cc1OC	13.51
CN(C(=O)C(CN)c1ccccc1)c1cccc(F)c1 (centres undefined)	-6.957
CN1CCCN(C(=O)NCCCn2cccn2)CC1	2.66
COc1cc(C(=O)NCC2CCC2)cc2c1OCCO2	58.01
Cc1cc(=O)cc(C(=O)NCCC(C)n2ccnc2)o1 (centres undefined)	-2.764
CS(=O)(=O)Cc1ccc(CN)cc1	25.52
Cn1cc(Cl)cc1C(=O)Nc1nncs1	44.78
COc1cc(C(=O)NC2CC2)cc(Cl)c1O	25.83
c1cncc(NCc2ccsc2)c1	30.7
CC(O)CN(C(=O)NCCCn1ccnc1)C(C)C (centres undefined)	-0.764
CCOC(=O)c1cccnc1C	2.936
O=C(CN1CCC=C(F)C1)Nc1cccc(F)c1	64.08
NC(=O)C1CCN(CCOc2ccc(Br)cc2)C1 (centres undefined)	58.52
COc1ccc(C(=O)N2CCC(N)CC2)cc1OC	24.19
Cc1ccc(S(=O)(=O)NCc2ncc[nH]2)cc1	23.58
NC(=O)c1ccc(-c2nc(C3CCCC3)no2)o1	69.8
CS(=O)(=O)NCC1CCCN(c2ccncc2Cl)C1 (centres undefined)	34.72
C=C(Cl)CS(=O)(=O)N1CCC(C(=O)N(CC)CC)CC1	-0.9969
NC(=O)c1cnn(Cc2ccc3c(c2)CCC3)c1	21.06
CSCC(CCO)NC(=O)NCc1ccccc1Cl (centres undefined)	34.07
CNC(=O)C(NC(=O)C1CCC1)c1ccccc1 (centres undefined)	8.516
CCN(CC)c1ccc(NC(=O)N(C)C)cn1	4.538
O=C(CC1CCc2ccccc21)NCc1ccncc1 (centres undefined)	42.83
CN(CCNc1ccc2cc[nH]c2n1)S(C)(=O)=O	-11.09
CCCNC(=O)Nc1ccc(N2CCOCC2)nc1	-7.2
Cc1noc(OCC(=O)N(C)Cc2ccc(F)cc2)n1	13.23
CNC(=O)c1ccc(NS(=O)(=O)c2ccc(C)s2)cc1	42.3
CCOc1cccc(CS(=O)(=O)Cc2cc(C)no2)n1	-5.475
Cc1nscc1C(=O)OCCCn1cccn1	35.56
NCc1cc(F)c(N2CCOCC2)c(F)c1	-11.26
CC(=O)c1ccc(NCC(=O)NC(C)C(C)C)cc1 (centres undefined)	58.2
CCOC(=O)c1ccc(S(=O)(=O)N2CCNCC2)o1	4.745
Nc1nccnc1C(=O)N(CC1CC1)c1ccccc1	1.849
CC1(C)CN(C(=O)c2cccnc2)CC2(CCCC2)O1	7.262
O=C(CCn1ccccc1=O)NCc1ccco1	26.62
CCOC(=O)N1CCC(NC(=O)c2ccsc2)CC1	67.05
N#Cc1ccc(CN2CCCSCC2)o1	32.69
NCc1cccc(-c2cccnc2)c1	37
CC(C)[C@H]1CN(CCC(=O)N(C)C)C[C@@H]1N	3.951
CC(C)(C)C(=O)NC1CCS(=O)(=O)c2ccccc21 (centres undefined)	8.277
CCc1nn(C)c(CC)c1S(=O)(=O)N(C)CC(C)O (centres undefined)	1.358
N#Cc1cccc(C2CNCCO2)c1 (centres undefined)	43.83
O=C(c1cccc(F)c1)N1CCN(c2nccs2)CC1	53.05
CCn1ncc2c1CCCC2N (centres undefined)	-4.771
CC(C)COc1cncc(NC2CCN(C)C2=O)n1 (centres undefined)	12.09
CCc1ccc(C2CNCCO2)cc1 (centres undefined)	46.78
Cn1ccc(C(=O)NCc2cccs2)cc1=O	8.468
CC(C)c1ccc(C(N)CNS(C)(=O)=O)cc1 (centres undefined)	74.94
CCNC(=O)c1cn2ccc(C)cc2n1	4.273
Cn1cc(C(=O)NC2CCCOc3ccccc32)nn1 (centres undefined)	9.146
O=C(NCCSCCCO)c1cccc2cc[nH]c12	-6.146
Nc1nccnc1Br	1.056
Cc1nc(C2CC(O)C2)cc(N2CC[C@@H](O)C2)n1 (some centres undefined)	16.41
CN(C)S(=O)(=O)NCC1CCCN(Cc2ccsc2)C1 (centres undefined)	-22.37
O=C(CCCn1cccn1)NCC1CCCCO1 (centres undefined)	27.13
NCCNCC(F)(F)F	-6.242
COCc1nn(Cc2cccc3cccnc23)c(=O)o1	69.38
CNc1nc(C(=O)N[C@@H]2CC[C@@H](N)C2)cs1	2.865
O=C(CSc1ncccc1Br)N1CCCC1	78.55
NC1(c2nc(C3CC3)cc(=O)[nH]2)CCCC1	51.9
CN(CCO)S(=O)(=O)N1CCNCC1	5.417
CSCC(=O)NCc1ccc(C(=O)N(C)C)o1	3.74
CNC(=O)CN(C)C(=O)Cc1c[nH]c2ccccc12	5.575
O=C(c1cc(C2CC2)n[nH]1)N1CCCC(O)(CO)CC1 (centres undefined)	-1.284
Cc1ccc(NC(=O)CCn2ccc(=O)[nH]c2=O)cc1	1.367

For reference, 9 entries once more:

CN1CCCN(C(=O)NCCCn2cccn2)CC1 read 2.66%.
CCOc1cccc(CS(=O)(=O)Cc2cc(C)no2)n1 read -5.475%.
CN(CCNc1ccc2cc[nH]c2n1)S(C)(=O)=O read -11.09%.
CC(O)CN(C(=O)NCCCn1ccnc1)C(C)C (centres undefined) read -0.764%.
COc1ccccc1C(O)c1ccccn1 (centres undefined) read 13.16%.
O=C(CSc1ncccc1Br)N1CCCC1 read 78.55%.
COc1cc(C(=O)NC2CC2)cc(Cl)c1O read 25.83%.
Cn1ccc(C(=O)NCc2cccs2)cc1=O read 8.468%.
CCOC(=O)c1cccnc1C read 2.936%.